Anti-infective test results gathered from many reports (values: NIAID ChemDB through PubChem).

All rows: tests on isolated targets; organism: Hepatitis C virus

Blank or dashed fields: not listed here.

SMILES,measure,dose,protein,value
Cc1c(S(=O)(=O)Nc2ccccc2-c2nc(C(=O)O)c(O)c(=O)[nH]2)sc2cc(Cl)ccc12,IC50,-,HCV polymerase,<100 µM
Clc1ccc(Oc2cccc(-c3cnc4c(-c5nn[nH]n5)cnn4c3C3CCCCC3)c2)cc1Cl,IC50,-,RNA-dependent RNA polymerase,1–10 µM
CNC(=O)c1c(-c2ccc(F)cc2)oc2cc(C)c(OC(C)C)c(S(N)(=O)=O)c12,IC50,-,Nonstructural protein 5B,≤0.5 µM
O=C(O)c1nc(-c2ccccc2NS(=O)(=O)c2ccc(C(F)(F)F)cc2Cl)[nH]c(=O)c1O,IC50,-,HCV polymerase,<100 µM
Cc1ccc(C(=O)N(C)c2cc(-c3ccc(O)cc3)sc2C(=O)O)cc1,IC50,-,NS3 ATPase,<5 µM
CC1(C)C(CC(=O)O)CC1c1ccc2cc(-c3nc4cc(C(=O)O)ccc4n3C3CCCCC3)ccc2n1,inhibition,33 µM,NS5B polymerase,99.04%
N[C@H](COC(=O)Nc1ccsc1-c1nc(C(=O)O)c(O)c(=O)[nH]1)c1ccccc1,IC50,-,HCV polymerase,<25 µM
O=C(O)c1ccc2c(c1)nc(-c1ccc3nc(-c4ccc(N5CCNCC5)cc4)ccc3c1)n2C1CCCCC1,inhibition,33 µM,NS5B polymerase,91.81%
O=C(O)c1cc2nc(-c3cccc(Oc4ccccc4)c3)cc(NCc3ccc(Cl)cc3)n2n1,IC50,-,RNA-dependent RNA polymerase,1–10 µM
CNC(=O)c1c(-c2ccc(F)cc2)oc2cc(-c3c(C)noc3C)c(OCc3nnnn3C)cc12,IC50,-,Nonstructural protein 5B,≤0.5 µM
COc1ccc(-c2cc(NS(=O)(=O)c3ccc(C)cc3)c(C(N)=O)s2)cc1,IC50,-,NS3 ATPase,5–20 µM
O=C(O)c1ccc2c(c1)nc(-c1ccc3nc(-c4cc(Br)ccc4O)ccc3c1)n2C1CCCCC1,inhibition,33 µM,NS5B polymerase,97.99%
C[C@@H](NC(=O)Nc1cccc(-c2nc(C(=O)O)c(O)c(=O)[nH]2)c1)c1cccc2ccccc12,IC50,-,HCV polymerase,<100 µM
O=C(O)c1ccc2c(c1)nc(-c1ccc3nc(-c4cccnc4)ccc3c1)n2C1CCCCC1,inhibition,100 µM,NS5B polymerase,89.31%
Cc1ccc(C(=O)N(Cc2cccc(C(F)(F)F)c2)c2cc(-c3ccccc3)sc2C(=O)O)cc1,IC50,-,NS3 ATPase,<5 µM
CNC(=O)c1c(-c2ccc(F)cc2)oc2cc(C3(C)NC(=O)NC3=O)c(OC)cc12,IC50,-,Nonstructural protein 5B,≤0.5 µM
O=C(O)c1cnn2c(C3CCCCC3)ccnc12,IC50,-,RNA-dependent RNA polymerase,>10 µM
CNC(=O)c1c(-c2ccc(F)cc2)oc2cc(N(C)S(C)(=O)=O)c(OCC(=O)OC(C)(C)C)cc12,IC50,-,Nonstructural protein 5B,≤0.5 µM
O=C(CCc1c(F)cccc1Cl)Nc1ccccc1-c1nc(C(=O)O)c(O)c(=O)[nH]1,IC50,-,HCV polymerase,<100 µM
Nc1cc(-c2ccccc2)sc1-c1ccc2cc(-c3nc4cc(C(=O)O)ccc4n3C3CCCCC3)ccc2n1,inhibition,33 µM,NS5B polymerase,101%
O=C(O)c1nc(-c2cc(F)cc(F)c2)[nH]c(=O)c1O,IC50,-,HCV polymerase,<100 µM
O=C(O)c1cnn2c(C3CCCCC3)c(-c3ccc(Cl)cc3Cl)cnc12,IC50,-,RNA-dependent RNA polymerase,1–10 µM
CC(C)N(C(=O)C1CC[C@@H](C)C[C@H]1O)c1cc(-c2ccccc2)sc1C(=O)O,IC50,-,NS3 ATPase,<5 µM
CNC(=O)c1c(-c2ccc(F)cc2)oc2cc(C(C)=O)c(OC(C)C)cc12,IC50,-,Nonstructural protein 5B,≤0.5 µM
CC(=O)N(Cc1ccc(C(F)(F)F)cc1)c1cc(-c2ccccc2)sc1C(=O)O,IC50,-,NS3 ATPase,5–20 µM
CC(C)Cc1c(-c2ccc(OCc3ccccc3)cc2)cnc2c(C(=O)O)cnn12,IC50,-,RNA-dependent RNA polymerase,>10 µM
CCCC(=O)N(Cc1cccc(Cl)c1)c1cc(-c2ccccc2)sc1C(=O)O,IC50,-,NS3 ATPase,<5 µM
CC(C)(C)OC(N)=NCCNc1cc(-c2ccccc2)nc2ccc(-c3nc4cc(C(=O)O)ccc4n3C3CCCCC3)cc12,inhibition,100 µM,NS5B polymerase,102%
COc1cccc(S(=O)(=O)Nc2cc(-c3ccc(CC(C)C)cc3)sc2C(=O)O)c1,IC50,-,NS3 ATPase,>20 µM
O=C(O)c1nc(-c2ccccc2Cl)[nH]c(=O)c1O,IC50,-,HCV polymerase,<100 µM
CNC(=O)c1c(-c2ccccc2)oc2ccc(OC)cc12,IC50,-,Nonstructural protein 5B,≤0.5 µM
CCC(=O)N(Cc1ccccc1C)c1cc(-c2ccccc2)sc1C(=O)O,IC50,-,NS3 ATPase,5–20 µM

A second listing of 3 rows from above:

SMILES,measure,dose,protein,value
C[C@@H](NC(=O)Nc1cccc(-c2nc(C(=O)O)c(O)c(=O)[nH]2)c1)c1cccc2ccccc12,IC50,-,HCV polymerase,<100 µM
N[C@H](COC(=O)Nc1ccsc1-c1nc(C(=O)O)c(O)c(=O)[nH]1)c1ccccc1,IC50,-,HCV polymerase,<25 µM
Cc1ccc(C(=O)N(C)c2cc(-c3ccc(O)cc3)sc2C(=O)O)cc1,IC50,-,NS3 ATPase,<5 µM

ICn: concentration for n% inhibition. Two numbers with a dash give a range or band. Conditions beyond the fields shown may differ between rows. Percent inhibition refers to the dose given; in toxicity tests it is the harm to the cells.